Reference: PubChem BioAssay AID624099 (ICCB-Longwood, 2012)
This is a random part of about 21,000 reagents tested. In the full data, 497 (2.4%) are marked active. 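Higher z means weaker E2 silencing; only reporter increases were scored, and knock-downs that hurt cell survival may mask genuine repressor factors.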 Reagents against one gene are numbered here.

Assay: 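Host factors E2 relies on to silence an HPV18 LCR reporter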 (primary screen)
System: human C33A cervical carcinoma cells (HPV-negative) stably expressing BPV1 E2 and an HPV18 LCR luciferase reporter
Reagent: siRNA pool against human genes, 40 nM
Time to read-out: 72 h
Detection: 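Per-well luciferase luminescence, z-scored on each plate against the plate mean and SD with control wells left out, then averaged across three replicate plates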
Reading the numbers: mean z-score and z-score: higher = stronger reporter signal, weaker E2 silencing
Rule for the call: 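Hit if mean z-score reaches 2 and two or more of three replicate z-scores also reach 2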

target | pool no. | mean z-score | z-score, replicate A | z-score, replicate B | z-score, replicate C | call
PADI2 | 1 | -1.55 | -1.42 | -1.65 | -1.57 | inactive
TSLIG3C | 1 | 0.47 | 0.95 | 0.39 | 0.08 | inactive
LOC389437 (retired record) | 1 | 1.27 | 1.44 | 1.39 | 0.99 | inactive
DBNDD1 | 1 | 0.93 | 0.82 | 0.86 | 1.13 | inactive
PHC1 | 1 | 1.42 | 1.48 | 1.53 | 1.26 | inactive
PHC1 | 2 | 0.25 | 0.52 | 0 | 0.22 | inactive
GSTO1 | 1 | 1.52 | 1.32 | 1.97 | 1.27 | inactive
HAP1 | 1 | -0.21 | -0.07 | -0.34 | -0.23 | inactive
AP1B1 | 1 | 0.73 | 1.26 | 0.3 | 0.65 | inactive
LCAT | 1 | 0.37 | 0.3 | 0.31 | 0.51 | inactive
ST8SIA1 | 1 | -0.86 | -0.79 | -0.94 | -0.85 | inactive
CCDC88A | 1 | 1.66 | 1.79 | 1.5 | 1.68 | inactive
CCDC88A | 2 | -0.39 | -0.98 | -0.06 | -0.14 | inactive
EIF3FP3 | 1 | 0.57 | 0.2 | 0.68 | 0.82 | inactive
GRB10 | 1 | 0.11 | 0.22 | -0.08 | 0.17 | inactive
TSPAN7 | 1 | 1.45 | 1.16 | 1.82 | 1.38 | inactive
INSRR | 1 | 0.3 | 0.42 | 0.31 | 0.16 | inactive
GNE | 1 | -0.52 | -0.66 | 0.07 | -0.97 | inactive
LENG9 | 1 | -0.22 | -0.15 | -0.41 | -0.09 | inactive
ETNPPL | 1 | 0.91 | 1.05 | 0.95 | 0.74 | inactive
SCAMP3 | 1 | -0.8 | -1.1 | -0.75 | -0.54 | inactive
MYO7B | 1 | 1.6 | 1.33 | 1.42 | 2.04 | inactive
ACADSB | 1 | 0.27 | 0.66 | 0.15 | 0.02 | inactive
SLC37A1 | 1 | -0.09 | 0.54 | -0.58 | -0.24 | inactive
NAA15 | 1 | -0.01 | 0.25 | 0.05 | -0.34 | inactive
PPIAP55 | 1 | -0.34 | -0.39 | -0.23 | -0.4 | inactive
ZFP69 | 1 | -0.23 | -0.29 | -0.31 | -0.1 | inactive
JOSD2 | 1 | 0.87 | 0.77 | 0.62 | 1.2 | inactive
ANKRD13D | 1 | 0.26 | 0.05 | 0.25 | 0.48 | inactive
NME5 | 1 | 0.24 | -0.07 | 0.5 | 0.3 | inactive
VPS50 | 1 | 0.23 | 0.41 | -0.01 | 0.3 | inactive
MBP | 1 | 1.48 | 1.38 | 1.56 | 1.51 | inactive
TRIM32 | 1 | 0.64 | 0.67 | 0.65 | 0.6 | inactive
NEUROG1 | 1 | 0.51 | 0.28 | 0.76 | 0.49 | inactive
PIGH | 1 | -0.34 | -0.79 | -0.17 | -0.06 | inactive
LOC339875 (retired record) | 1 | -0.03 | -0.28 | 0.08 | 0.1 | inactive
SMPD1 | 1 | -1.4 | -1.68 | -1.85 | -0.67 | inactive
NOD2 | 1 | 0.38 | 0.24 | 0.4 | 0.5 | inactive
ARG2 | 1 | -0.38 | -0.31 | -0.2 | -0.62 | inactive

No new results follow: 3 of the entries above.
target | pool no. | mean z-score | z-score, replicate A | z-score, replicate B | z-score, replicate C | call
LOC339875 (retired record) | 1 | -0.03 | -0.28 | 0.08 | 0.1 | inactive
SMPD1 | 1 | -1.4 | -1.68 | -1.85 | -0.67 | inactive
NOD2 | 1 | 0.38 | 0.24 | 0.4 | 0.5 | inactive
